A mixed list of measured activities; the numbers were collected in NIAID ChemDB.

Common to all: whole-cell or culture tests; organism: Human cytomegalovirus

ECn is the concentration giving n% inhibition of infection, replication or growth. Rows are shuffled and stem from different studies. Inhibition is in % at the dose shown (toxicity tests: loss of growth or viability). Blank or dashed fields: not listed here.

smiles | strain or isolate | cells | method | read-out | tested at | value
O=C(NCc1ccc(Cl)cc1)c1c[nH]c2c(F)cc(CCCO)cc2c1=O | 759rD100 | - | plaque count | EC90 | - | 2.1 µM
Nc1ccn(C[C@H]2COP(=O)(O)CO2)c(=O)n1 | 759D100 drug-resistant mutant | MRC-5 | plaque count | EC50 | - | 2.5 µM
Nc1ccn(C[C@@H](CO)OCP(=O)(O)O)c(=O)n1 | AD169 (ganciclovir foscarnet-susceptible) | MRC-5 | plaque count | EC75 | - | 0.5 µM
Nc1nc2c(ncn2COC(CO)CO)c(=O)[nH]1 | 4955REC (THR700ALA) | MRC-5 | hybridisation | EC50 | - | 0.7 µM
Nc1nc2c(ncn2COC(CO)CO)c(=O)[nH]1 | DAVIS | HFF | plaque count | EC90 | - | 3.2 µM
CC(C)Nc1nc2cc(Cl)c(Cl)cc2n1[C@H]1O[C@@H](CO)[C@H](O)[C@@H]1O | 2916 (bdcrb maribavir-resistant) | HFF | virus yield | EC90 | - | 57 µM
Nc1ccn([C@@H]2O[C@H](CO)[C@@H](O)[C@@H]2O)c(=O)n1 | - | HEL | plaque count | inhibition | 0.01 µM | 28.3%
Cc1ccc2ncnc(Nc3ccc(Cl)c(Cl)c3)c2c1 | AD169-GFP | HFF | plaque count | inhibition | 1.1 µM | 18%
COc1cccc(N2CCN(C3=Nc4c(F)cccc4[C@H](CC(=O)O)N3c3cc(C(F)(F)F)ccc3OC)CC2)c1 | GDGrXbaF4 | - | plaque count | EC50 | - | 0.0026 µM
CCSc1ncnc2c1ncn2[C@@H]1OC2COP(=O)(O)OC2[C@H]1O | - | - | - | MIC | - | 3.2 µg/mL
OC[C@H]1O[C@@H](n2c(Br)nc3cc(Cl)c(Cl)cc32)[C@H](O)[C@@H]1O | 2916R (1263W94-resistant) | HFF | virus yield | EC90 | - | 46 µM
Nc1ccn(C[C@@H](CO)OCP(=O)(O)O)c(=O)n1 | AD169 | HFF | plaque count | EC90 | - | 3.7 µM
Nc1nc2c(ncn2COC(CO)CO)c(=O)[nH]1 | Towne (ganciclovir- foscarnet-susceptible) | MRC-5 | plaque count | EC75 | - | 9.94 µM
CCCCCCCCCCCCCCCCCCOCCOP(=O)(O)CO[C@H](CO)Cn1ccc(N)nc1=O | AD169 | MRC-5 | - | EC50 | - | 0.00002 µM
CC(C)Nc1nc2cc(Cl)c(Cl)cc2n1[C@H]1O[C@@H](CO)[C@H](O)[C@@H]1O | C9213 | MRC-5 | plaque count | EC50 | - | 0.4 µM
Nc1nc2c(ncn2[C@@H]2C[C@H](CO)[C@H]2CO)c(=O)[nH]1.O=C(O)P(=O)(O)O | PC92 (ganciclovir- foscarnet-susceptible) | MRC-5 | plaque count | EC75 | - | 1.2 µM
Nc1nc2c(ncn2COC(CO)CO)c(=O)[nH]1 | TOWNE | HFF | virus yield | EC90 | - | 4.4 µM
O=P1(O)OCC2O[C@@H](n3cnc4c(NO)ncnc43)[C@H](O)C2O1 | - | - | - | MIC | - | 10 µg/mL
Cn1cc(C(=O)NCc2ccc(Cl)cc2)c(=O)c2cc(CN3CCOCC3)ccc21 | SA | HFF | plaque count | inhibition | 6.9 µM | 90%
OC[C@@H]1O[C@@H](n2c(Cl)nc3cc(Cl)c(Cl)cc32)[C@H](O)[C@@H]1O | TOWNE | HFF | virus yield | EC90 | - | 9.2 µM
O=C(NCc1ccc(Cl)cc1)c1c[nH]c2ccc(C#CCO)cc2c1=O | Clinical isolates | - | plaque count | EC90 | - | 7.2 µM
Nc1nc2c(ncn2COC(CO)CO)c(=O)[nH]1 | TOWNE | HFF | virus yield | EC90 | - | 1.6 µM
O=C(NCc1ccc(Cl)cc1)c1c[nH]c2ccc(C#CCO)cc2c1=O | LYS | - | plaque count | EC50 | - | 1.7 µM
Nc1nc2c(ncn2COC(CO)CO)c(=O)[nH]1 | VR4760 (ganciclovir-resistant) | - | plaque count | EC90 | - | 93 µM
CCCCCCCCCCCCCCCCCCOCCOP1(=O)CO[C@@H](Cn2ccc(N)nc2=O)CO1 | C8914-6 drug-resistant mutant | MRC-5 | plaque count | EC50 | - | 0.0045 µM
Nc1ccn(C[C@H]2COP(=O)(O)CO2)c(=O)n1.O=C(O)P(=O)(O)O | Towne (ganciclovir- foscarnet-susceptible) | MRC-5 | plaque count | EC75 | - | 0.81 µM
OC[C@H]1O[C@@H](n2c(Br)nc3cc(Cl)c(Cl)cc32)[C@H](O)[C@@H]1O | 2916 (bdcrb maribavir-resistant) | HFF | virus yield | EC90 | - | 0.38 µM
OC[C@H]1O[C@@H](n2c(Br)nc3cc(Cl)c(Cl)cc32)[C@H](O)[C@@H]1O | C4 (D341E) | - | virus yield | EC95 | - | 6.8 µM

Repeating the final 3 entries:

smiles	strain or isolate	cells	method	read-out	tested at	value
Nc1ccn(C[C@H]2COP(=O)(O)CO2)c(=O)n1.O=C(O)P(=O)(O)O	Towne (ganciclovir- foscarnet-susceptible)	MRC-5	plaque count	EC75	-	0.81 µM
OC[C@H]1O[C@@H](n2c(Br)nc3cc(Cl)c(Cl)cc32)[C@H](O)[C@@H]1O	2916 (bdcrb maribavir-resistant)	HFF	virus yield	EC90	-	0.38 µM
OC[C@H]1O[C@@H](n2c(Br)nc3cc(Cl)c(Cl)cc32)[C@H](O)[C@@H]1O	C4 (D341E)	-	virus yield	EC95	-	6.8 µM